Experimental data from publication PMC8539749 (Viruses, 2021).
“Also recorded” adds a separate entry of the source. Positions of bridges follow the written chain, without caps; N, C: chain ends. Residues, ends and D or L forms follow the SMILES beside them.

Amino acid sequences for entries named in this document (tags omitted). Residues count along the entry.
UniProt R4V2Q5, 21-452 limits assumed: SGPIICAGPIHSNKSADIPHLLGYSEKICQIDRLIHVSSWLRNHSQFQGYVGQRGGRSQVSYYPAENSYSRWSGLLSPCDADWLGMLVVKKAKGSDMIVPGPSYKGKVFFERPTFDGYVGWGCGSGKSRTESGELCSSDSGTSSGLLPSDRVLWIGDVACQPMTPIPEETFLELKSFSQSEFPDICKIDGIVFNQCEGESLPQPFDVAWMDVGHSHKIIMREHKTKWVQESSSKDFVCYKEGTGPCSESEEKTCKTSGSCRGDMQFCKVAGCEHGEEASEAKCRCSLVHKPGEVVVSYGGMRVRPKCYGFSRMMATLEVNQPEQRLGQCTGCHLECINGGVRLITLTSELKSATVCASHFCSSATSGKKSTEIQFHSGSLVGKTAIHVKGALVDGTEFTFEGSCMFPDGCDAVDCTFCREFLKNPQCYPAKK

Assays:
SFTSV Gn = SFTSV Gn (Dabie bandavirus, UniProt R4V2Q5); type: binding, severe fever with thrombocytopenia syndrome virus
SFTSV [1] = type: cell-based, SFTSV HB29 strain
SFTSV [2] = type: cell-based, SFTSV HB29 strain; remark: listed apart in the source

## N=C(N)NCCC[C@@H]1NC(=O)[C@@H](NC(=O)[C@@H](N)CCCCN)CCCCNC(=O)[C@H](CO)NC(=O)CNC(=O)[C@H](Cc2ccccc2)NC(=O)CNC1=O [HKU-P1] (H-KKRGFGS; lactam 2-C)
SFTSV Gn
  inhibition of biotin-HKU-P1 binding (in words): inhibited the binding of biotin-HKU-P1 to the SFTSV Gn protein; also recorded: inhibited the binding of biotin-HKU-P1 in a dose-dependent manner
SFTSV [1]
  Loewe additivity index, all combinations: < 1
SFTSV [2]
  SFTSV viral RNA load reduction, neutralization group: > 40%
  neutralization of SFTSV virion (in words): potently neutralizes the SFTSV virion
  viral load reduction, neutralization group (in words): Significant viral load reduction
